The target of one series is CD4 (Homo sapiens, UniProt P01730). The class given is binding.
Series [1] addresses T1, CD4/gp120 interaction (Human immunodeficiency virus type 1 group M subtype B, UniProt P03375). The following applies: data not shown.
Series [2] addresses T1, CD4/gp120 interaction. The following applies: plates coated with CD4.
The test system of a further series is CEM-SS cell line. The following applies: b223.
The nature of series [3]: Fraction tetramer by size exclusion chromatography. Format: physicochemical. A general note: Size exclusion chromatography separates by hydrodynamic size, large species first.
In the next series the target is V3 loop of gp120 (Human immunodeficiency virus type 1 group M subtype B, UniProt P03375). Particulars: inhibition of binding of V3 loop monoclonal antibody; FIG. 18.
Series [4] has as its system HIV proteins (Tat, p24, reverse transcriptase, vif, protease, gp41), soluble CD4 (sCD4) and non-related proteins. The class given is binding. The following applies: monomeric and tetrameric forms.
In the next series the target is gp120 (Human immunodeficiency virus type 1 group M subtype B, UniProt P03375). The following applies: read-out: dissociation constant (Kd); immobilized gp120; FIG. 16.

Entries after “also recorded” stand apart in the source; their conditions may differ. Where two headings read alike, the source gives them in different places. Bounds are passed on as bounds.

The term Kd denotes the equilibrium constant for the complex coming apart. Usually Ki stands for a measure of affinity in units of concentration, obtained from inhibition or displacement. Lower therefore signals a stronger hold on the target.

At CD4, T2A4T2-biotin [reference compound] showed an equilibrium dissociation constant (Kd) of around 240 µM.

For “TGTGTGTG [ISIS 6071, reference compound]”, the “concentration inhibiting 50% of binding of CD4 to immobilized gp120” value on CD4/gp120 interaction [1] was “had no effect”.

Take TT GGGG TT [ISIS 5320]: the IC50 against CD4/gp120 interaction [2] is around 20 µM; at CD4/gp120 interaction [1] (read-out: concentration inhibiting 50% of binding of CD4 to immobilized gp120), around 2.5 µM. Also, the “concentration at which cytotoxic effects were observed” value in the series with CEM-SS cell line is “approximately 100 μM”. Further, the “% tetramer” value in series [3] (Table 15, in parentheses, asterisk = multiple aggregate species) was determined as 93%; in series [3] (Table 16, asterisk = more than one aggregate species), 98%. Also, on V3 loop of gp120, the Ki is around 0.5 µM. Moreover, in series [4], the “protein binding in gel shift” value is “bound to BSA and reverse transcriptase; also recorded: Tetramer-specific binding was observed only to gp120 and sCD4”.

As to TsTsGsGsGsGsTsTsB, on gp120, the Kd was below 1 µM.

For the origin of these results see US20110124715A1, “Antiviral Oligonucleotides Having a Conserved G4 Core Sequence” (priority 1992, published 2011).
